Pooled drug test results. Numbers come from NIAID ChemDB, via PubChem.

Common to all: cytotoxicity tests; cell line: MT-4; endpoint: CC50

Rows are shuffled and stem from different studies. An empty or dashed field is not shown. CCn: concentration that lowers growth or viability of the cells by n%.

SMILES | method | value
CCNC(=O)[C@@H](NC(=O)Cc1cccs1)[C@@H]1N[C@@H](C(=O)NCCNC(=O)[C@@H]2N[C@@H]([C@H](NC(=O)Cc3cccs3)C(=O)NCC)SC2(C)C)C(C)(C)S1 |  | >100 µM
Cc1cc(C)cc(C(=O)c2cccnc2Nc2ccc(C(N)=O)cc2)c1 | MTT | 36.41 µM
O=C1CCC(c2ccccc2)C(=O)N1CCCN1CCN(c2ccccn2)CC1 | MTT | >100 µM
Nc1nc2c(ncn2[C@H]2C[C@]3(CO2)CC(F)(F)P(=O)(O)O3)c(=O)[nH]1 | MTT | >100 µM
CNC(=O)CSP(=O)(NCC(=O)OC)OC[C@@H]1CC[C@H](n2cnc3c(=O)[nH]cnc32)O1 |  | >10 µM
O=c1[nH]c(=O)n([C@H]2C[C@H](F)[C@@H](CO)O2)cc1Cl |  | 180 µM
C[C@H](CCC(=O)O)[C@H]1CC[C@H]2[C@@H]3[C@H](O)C[C@@H]4C[C@H](O)CC[C@]4(C)[C@H]3C[C@H](O)[C@]12C |  | 240 µg/mL
NC(N)=NCCC[C@H]1/C=C/[C@@H](Cc2ccc3ccccc3c2)C(=O)NCC(=O)N[C@H](Cc2ccc(O)cc2)C(=O)N[C@@H](CCCN=C(N)N)C(=O)N1 | MTT | >100 µM
CCCCOc1ccc(CSc2nc(Cc3c(Cl)cccc3Cl)c(C)c(=O)[nH]2)cc1 | MTT | 3.1 µM
O=S(=O)(O)OCC1OC2OC3C(COS(=O)(=O)O)OC(OC4C(COS(=O)(=O)O)OC(OC5C(COS(=O)(=O)O)OC(OC6C(COS(=O)(=O)O)OC(OC7C(COS(=O)(=O)O)OC(OC8C(COS(=O)(=O)O)OC(OC9C(COS(=O)(=O)O)OC(OC1C(OS(=O)(=O)O)C2OS(=O)(=O)O)C(OS(=O)(=O)O)C9OS(=O)(=O)O)C(OS(=O)(=O)O)C8OS(=O)(=O)O)C(OS(=O)(=O)O)C7OS(=O)(=O)O)C(OS(=O)(=O)O)C6OS(=O)(=O)O)C(OS(=O)(=O)O)C5OS(=O)(=O)O)C(OS(=O)(=O)O)C4OS(=O)(=O)O)C(OS(=O)(=O)O)C3OS(=O)(=O)O |  | >125 µg/mL
CC(=O)c1ccc(Nc2ncccc2C(=O)c2cc(C)cc(C)c2)cc1 | MTT | 34.77 µM
C[C@H](CCC(=O)O)[C@H]1CC[C@H]2[C@@H]3CC[C@@H]4C[C@H](O)CC[C@]4(C)[C@H]3CC[C@]12C |  | 47 µg/mL
CNC(=O)CSP(=O)(NCC(=O)OC)OC[C@@H]1CC[C@H](n2cc(C)c(=O)[nH]c2=O)O1 |  | 20 µM
CCOP(=O)(OCC)C(F)(F)C[C@@]1(O)CO[C@@H](n2cnc3c(N)nc(F)nc32)C1 | MTT | >100 µM
O=C1Nc2c(C(F)(F)F)ccnc2N(C2CC2)c2ncccc21 |  | >200 µM
Nc1ccn([C@H]2CC[C@H](CO)[Se]2)c(=O)n1 | MTT | >100 µM
O=C1CCC(c2ccccc2)C(=O)N1CCCCN1CCN(c2ccccc2O)CC1 | MTT | >100 µM
Cc1cc(C)cc(C(=O)c2cccnc2Oc2ccc(C(=O)O)cc2)c1 | MTT | 150 µM
CCC(C)Oc1cc(N)nc(Sc2cccc(C)c2)n1 |  | 121 µM
O=c1ccn([C@H]2CC[C@H](CO)[Se]2)c(=O)[nH]1 | MTT | >100 µM
CC1(C)S[C@H]([C@H](NC(=O)Cc2ccccc2)C(N)=O)N[C@H]1C(=O)NCCNC(=O)[C@@H]1N[C@@H]([C@H](NC(=O)Cc2ccccc2)C(N)=O)SC1(C)C |  | >100 µM
CCN(CC)CC.CNC(=O)CSP(=O)(O)OC[C@H]1O[C@@H](n2cc(C)c(=O)[nH]c2=O)C[C@@H]1F |  | >90 µM
Cc1cc(C)cc(C(=O)c2cccnc2Nc2cnccn2)c1 | MTT | 240 µM
S=c1[nH]c2cc(Cl)cc3c2n1CCN1CCCCC31 |  | >200 µM
Cc1cc(C#N)cc(C)c1Oc1nc(Nc2ccc(C#N)cc2)nc(N)c1Br | MTT | 4.41 µM
CCC(C)Oc1nc(N)cc(S(=O)(=O)c2cc(C)cc(C)c2)n1 |  | 33 µM
C[C@H](CCC(=O)O)[C@H]1CC[C@H]2C3[C@H](OS(=O)(=O)O)C[C@@H]4C[C@H](OS(=O)(=O)O)CC[C@]4(C)[C@H]3CC[C@]12C |  | >500 µg/mL
Cc1cn([C@H]2C=C[C@@H](CO)O2)c(=O)[nH]c1=O |  | 43.2 µM
Cc1cn([C@H]2C[C@H](F)[C@@H](CO)O2)c(=O)[nH]c1=O |  | 0.25 µM
Cc1cn([C@H]2C=C[C@@H](CO)O2)c(=O)[nH]c1=O | MTT | 74 µM
CCC(C)Oc1cc(N)nc(OC(C)CC)n1 |  | >300 µM
Cc1cn([C@H]2C=C[C@@H](COP(=O)(Nc3cc(C(=O)Nc4cc(C(=O)NCCC(=N)N)n(C)c4)n(C)c3)OC(C)C)O2)c(=O)[nH]c1=O | MTT | 179 µM
CCC(C)Oc1cc(N)nc(Sc2ccc(N)cc2)n1 |  | 200 µM
Nc1ncnc2c1ncn2[C@H]1C[C@]2(CO1)CC(F)(F)P(=O)(O)O2 | MTT | >100 µM
Nc1ccn([C@@H]2CC[C@H](CO)[Se]2)c(=O)n1 | MTT | >100 µM
C[C@H](CCC(=O)O)[C@H]1CC[C@H]2[C@@H]3CC[C@@H]4C[C@H](O)CC[C@]4(C)[C@H]3C[C@H](O)[C@]12C |  | 56 µg/mL
CCC(C)Oc1cc(N)nc(S(=O)(=O)c2cccc(OC)c2)n1 |  | 99.5 µM
CCOP(=O)(OCC)C(F)(F)C[C@@]1(O)CO[C@@H](n2cnc3c(Cl)nc(N)nc32)C1 | MTT | >100 µM
O=S(=O)(O)OCC1OC2OC3C(COS(=O)(=O)O)OC(OC4C(COS(=O)(=O)O)OC(OC5C(COS(=O)(=O)O)OC(OC6C(COS(=O)(=O)O)OC(OC7C(COS(=O)(=O)O)OC(OC8C(COS(=O)(=O)O)OC(OC1C(OS(=O)(=O)O)C2OS(=O)(=O)O)C(OS(=O)(=O)O)C8OS(=O)(=O)O)C(OS(=O)(=O)O)C7OS(=O)(=O)O)C(OS(=O)(=O)O)C6OS(=O)(=O)O)C(OS(=O)(=O)O)C5OS(=O)(=O)O)C(OS(=O)(=O)O)C4OS(=O)(=O)O)C(OS(=O)(=O)O)C3OS(=O)(=O)O |  | >125 µg/mL
Cc1cc(C)cc(C(=O)c2cccnc2Nc2cccnc2)c1 | MTT | 41.63 µM
Cc1c(Cc2c(F)cccc2F)nc(SCc2ccc(C(C)C)cc2)[nH]c1=O | MTT | >62 µM
CCNC(=O)[C@@H](NC(=O)Cc1ccccn1)[C@@H]1N[C@@H](C(=O)NCCNC(=O)[C@@H]2N[C@@H]([C@H](NC(=O)Cc3ccccn3)C(=O)NCC)SC2(C)C)C(C)(C)S1 |  | >100 µM
COC(=O)CNP(=O)(NCC(=O)OC)OC[C@H]1O[C@@H](n2cc(C)c(=O)[nH]c2=O)C[C@@H]1F |  | >150 µM
C[C@H](CCC(=O)O)[C@H]1CC[C@H]2C3[C@H](O)C[C@@H]4C[C@H](OS(=O)(=O)O)CC[C@]4(C)[C@H]3CC[C@]12C |  | 335 µg/mL
O=C1CCC(c2ccccc2)C(=O)N1CCCCN1CCN(c2ccc(F)cc2)CC1 | MTT | 54 µM
Nc1ccn([C@H]2C[C@]3(CO2)CC(F)(F)P(=O)(O)O3)c(=O)n1 | MTT | 90 µM
Cc1cn([C@H]2C=C[C@@H](COP(=O)(Nc3cc(C(=O)NCCC(=N)N)n(C)c3)OC(C)C)O2)c(=O)[nH]c1=O | MTT | 223 µM
Cc1c(Cc2c(F)cccc2F)nc(SCc2ccc(C#N)cc2)[nH]c1=O | MTT | >65 µM
O=C1CCC(c2ccccc2)C(=O)N1 | MTT | >100 µM
Cc1cc(C)cc(C(=O)c2cccnc2Nc2ccc(C#N)cc2)c1 | MTT | 128 µM
Cc1c(Cc2c(Cl)cccc2Cl)nc(SCc2ccc3c(c2)C(=O)c2ccccc2C3=O)[nH]c1=O | MTT | >48 µM
C[C@H](CCC(=O)NCC(=O)O)[C@H]1CC[C@H]2[C@@H]3CC[C@@H]4C[C@H](OS(=O)(=O)O)CC[C@]4(C)[C@H]3CC[C@]12C |  | 240 µg/mL
CC1(C)S[C@H]([C@H](NC(=O)c2ccccc2-c2ccccc2)C(=O)NCc2ccccc2)N[C@H]1C(=O)NCCNC(=O)[C@@H]1N[C@@H]([C@H](NC(=O)c2ccccc2-c2ccccc2)C(=O)NCc2ccccc2)SC1(C)C |  | >100 µM
CCOP(=O)(OCC)C(F)(F)C[C@@]1(O)CO[C@@H](n2cc(C)c(=O)[nH]c2=O)C1 | MTT | >100 µM

A second listing of 3 rows from above:

SMILES	method	value
Cc1cc(C)cc(C(=O)c2cccnc2Nc2cccnc2)c1	MTT	41.63 µM
C[C@H](CCC(=O)O)[C@H]1CC[C@H]2C3[C@H](OS(=O)(=O)O)C[C@@H]4C[C@H](OS(=O)(=O)O)CC[C@]4(C)[C@H]3CC[C@]12C		>500 µg/mL
Nc1ccn([C@H]2CC[C@H](CO)[Se]2)c(=O)n1	MTT	>100 µM